## RC index of single-base changes in HIV-1 Gag

From the data files of Al-Mawsawi et al. 2014, doi:10.1186/s12977-014-0124-6.

Protein: Gag of HIV-1 NL4-3, numbered from its first residue. Gag is numbered as the whole polyprotein.
Effects on overlapping genes or RNA elements are not listed.

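Seven fragments of pNL4-3 were mutated by error-prone PCR, and each virus pool was passaged in CEM T cells. Sequencing gave the RC index: frequency after two rounds over frequency in the input plasmid.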

Values are the RC index; higher means better tolerated. The authors read about 0.1 or less as lethal, 0.1-0.2 as attenuated and 0.2 or more as tolerated. Each entry names the wild-type residue, its position and the residue put in its place. Input reads are the counts in the plasmid library. Clones carried about five changes per kilobase, which can drag down the index of neutral changes. Nucleotide positions follow pNL4-3. The authors read an index above 1 as above wild type (1.9% of all changes in the genome).

change | base | region | input reads | RC
E73D | A1008T | MA | 362 | 0.0355
E74Q | G1009C | MA | 32 | 0.100
E74G | A1010G | MA | 129 | 0.0498
E74V | A1010T | MA | 135 | 0.0714
E74D | A1011C | MA | 35 | 0.0918
E74D | A1011T | MA | 231 | 0.0278
L75V | C1012G | MA | 107 | 0.0601
L75H | T1013A | MA | 288 | 0.0670
L75P | T1013C | MA | 282 | 0.0912
S77T | T1018A | MA | 472 | 0.0681
S77P | T1018C | MA | 112 | 0.144
L78I | T1021A | MA | 307 | 0.0524
L78S | T1022C | MA | 305 | 0.0738
L78F | A1023T | MA | 233 | 0.0276
Y79N | T1024A | MA | 236 | 0.0272
Y79H | T1024C | MA | 124 | 0.130
Y79F | A1025T | MA | 129 | 0.0249
N80Y | A1027T | MA | 66 | 0.146
N80S | A1028G | MA | 223 | 0.0288
N80I | A1028T | MA | 392 | 0.0246
T81S | A1030T | MA | 129 | 0.0249
T81R | C1031G | MA | 127 | 0.0759
I82V | A1033G | MA | 314 | 0.0921
I82L | A1033T | MA | 324 | 0.0595
A83T | G1036A | MA | 454 | 0.135
A83S | G1036T | MA | 253 | 0.127
V84I | G1039A | MA | 604 | 0.0532
V84L | G1039C | MA | 104 | 0.124
V84F | G1039T | MA | 398 | 0.0485
L85F | C1042T | MA | 226 | 0.128
L85P | T1043C | MA | 252 | 0.179
Y86N | T1045A | MA | 422 | 0.0229
Y86H | T1045C | MA | 315 | 0.561
Y86D | T1045G | MA | 41 | 0.157
Y86F | A1046T | MA | 362 | 0.0444
C87R | T1048C | MA | 304 | 0.0740
C87Y | G1049A | MA | 652 | 0.0740
C87S | G1049C | MA | 190 | 0.0508
V88L | G1051C | MA | 127 | 0.0253
V88E | T1052A | MA | 429 | 0.0225
V88A | T1052C | MA | 210 | 0.0765
H89N | C1054A | MA | 96 | 0.234
H89R | A1055G | MA | 343 | 0.0656
H89L | A1055T | MA | 420 | 0.0459
Q90L | A1058T | MA | 458 | 0.0561
Q90H | A1059C | MA | 124 | 0.0518
Q90H | A1059T | MA | 407 | 0.0474
R91K | G1061A | MA | 268 | 0.492
R91S | G1062C | MA | 137 | 0.0235
I92V | A1063G | MA | 329 | 0.127
I92L | A1063T | MA | 339 | 0.171
I92K | T1064A | MA | 190 | 0.0169
I92T | T1064C | MA | 145 | 0.0887
D93H | G1066C | MA | 139 | 0.116
D93E | T1068A | MA | 295 | 0.599
V94I | G1069A | MA | 473 | 0.143
V94E | T1070A | MA | 426 | 0.0151
V94A | T1070C | MA | 292 | 0.110
K95Q | A1072C | MA | 64 | 0.100
K95E | A1072G | MA | 305 | 0.0632
K95T | A1073C | MA | 39 | 0.165
K95R | A1073G | MA | 221 | 0.160
K95I | A1073T | MA | 268 | 0.0960